assay: Naphthalene derivatives reacting with Fast Garnet GBC chromogenic indicator laminae in test devices (Experiment XIV); settings: naphthalene derivative lamina (from 5 mM solution) and Fast Garnet GBC lamina in test device, water added

Nc1ccc2cc(S(=O)(=O)O)cc(S(=O)(=O)O)c2c1 [7-amino-1,3-naphthalene disulfonic acid] and Nc1cc2ccc(S(=O)(=O)O)cc2cc1S(=O)(=O)O [3-amino-2,7-naphthalene disulfonic acid] are the same in “COLOR SCORE” value: 0 for the first, 0 for the second.

For Nc1c(S(=O)(=O)O)ccc2ccc(S(=O)(=O)O)cc12 [8-amino-2,7-naphthalene disulfonic acid], the “COLOR SCORE” value was 0.5.

— patent EP0791071B1, “ASSAY FOR PROLINE IMINOPEPTIDASE AND OTHER HYDROLYTIC ACTIVITIES” (LITMUS CONCEPTS, INC., priority 1994, dated 1996)
